Results deposited as PubChem BioAssay AID1259414 (Drosophila RNAi Screening Center, 2018).

Assay: 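Host factors increasing or decreasing Wolbachia levels in cultured fly cells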 (primary screen)
Cells: Drosophila JW18 cells infected with Wolbachia
Knock-down reagent: long dsRNA against Drosophila genes, 0.25 µg dsRNA per well of a 384-well plate
Timing: 5 days
Challenge: cells persistently infected with Wolbachia before knock-down; no added drug
Measured: 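Automated imaging of bacterial rRNA staining divided by host cell count, reported as plate-normalised robust z-score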
Scale: Wolbachia per cell robust z: higher = more Wolbachia per host cell than the plate typical
Active means: 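Active if absolute robust z reaches 1.5 in two or more of three replicates, leaving out multi- or no-target dsRNAs, genes unexpressed in JW18 and A1 wells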
The screen tested about 24,000 reagents; below is an unselected part of those that have a named target and a result. In the full data, about 1,210 (5%) are marked active. 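Inactive calls also include excluded dsRNAs with several or no targets, genes unexpressed in JW18, and well A1, regardless of score.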 Unmarked entries are inactive.

gene | dsRNA | Wolbachia per cell robust z, rep 1 | Wolbachia per cell robust z, rep 2 | Wolbachia per cell robust z, rep 3
neo | DRSC16316 | -3.8 | 0.215 | -0.732
neo | DRSC24164 | 0.15 | 0.677 | -0.78
lbk | DRSC07178 | -0.292 | 0.706 | -0.153
M1BP | DRSC16566 | 1.55 | 0.653 | 0.923
M1BP | DRSC29073 | 1.83 | -0.0778 | -0.103
Lsm12a | DRSC19702 | 1.05 | -2.63 | 0.62
CG10600 | DRSC02074 | 0.622 | 0.565 | 0.341
CG12506 | DRSC00347 | 0.826 | -5.39 | -0.0293
CG13930 | DRSC08399 | -4.44 | -0.836 | -1.47
CG13930 | DRSC28494 | 0.285 | -1.48 | 1.2
Idgf3 | DRSC03351 | 0.562 | 0.541 | 0.36
Idgf3 | DRSC40747 | 0.278 | -0.547 | 0.552
Rb97D | DRSC16815 | 0.804 | 0.9 | 0.304
Rb97D | DRSC25278 | -1.08 | -0.799 | 0.265
PKD | DRSC16200 | -3.76 | -5.09 | -0.826
Atac2 | DRSC02053 | -0.521 | -0.163 | -0.27
plu | DRSC07665 | -0.534 | -0.418 | -1.92
CG11601 | DRSC00318 | 0.683 | 0.561 | -0.2
Spase25 | DRSC19776 | -0.0895 | 0.585 | -1.5
NC2beta | DRSC01895 | -0.226 | -0.811 | -3.36
NC2beta | DRSC25346 | -1.4 | 1.26 | -0.139
Cf2 | DRSC23015 | -0.365 (active) | -1.91 | -2.59
Cf2 | DRSC28177 | -0.349 | -1.02 | -0.913
CG33259 | DRSC10854 | -0.163 | 0.316 | -0.796
CG33259 | DRSC29910 | 0.681 | 0.68 | 0.874
CG7896 | DRSC16335 | -0.221 | -0.513 | 0.278
ND-75 | DRSC18686 | 1.14 | -0.44 | 0.316
CG13609 | DRSC14612 | 0.537 | 0.8 | -0.0305
CG13609 | DRSC22843 | 0.293 | 0.576 | 0.385
fzy | DRSC03534 | -7.75 | 0.802 | 0.107
fzy | DRSC40829 | -0.681 | 1.45 | 0.663
pnr | DRSC17027 | 0.243 | 0.147 | 0.612
pnr | DRSC25347 | 1.13 | 0.142 | 0.374
vtd | DRSC38781 | 1.39 | 0.0678 | 0.0442

Records listed so far whose gene name begins with M or m:
gene | dsRNA | Wolbachia per cell robust z, rep 1 | Wolbachia per cell robust z, rep 2 | Wolbachia per cell robust z, rep 3
M1BP | DRSC16566 | 1.55 | 0.653 | 0.923
M1BP | DRSC29073 | 1.83 | -0.0778 | -0.103

More reagents follow.
gene | dsRNA | Wolbachia per cell robust z, rep 1 | Wolbachia per cell robust z, rep 2 | Wolbachia per cell robust z, rep 3
IleRS | DRSC11667 | -1.78 | -0.444 | -0.883
CG34434 | DRSC18134 | 1.38 | 0.571 | -0.527
CG34434 | DRSC26923 | -2.21 (active) | -1.97 | 0.38
CG34434 | DRSC28486 | 0.442 | -0.036 | 0.0264
CG13063 | DRSC09946 | -0.0783 | -0.304 | 1.38
CG13063 | DRSC25466 | 0.712 | 0.792 | 0.761
CG33689 | DRSC38838 | -0.143 | 0.452 | -0.242
eIF2Balpha | DRSC16332 | -0.184 | 0.993 | 0.286
alc | DRSC07062 | 0.904 | 0.251 | -2.34
alc | DRSC21464 | -0.49 | 0.575 | -0.136
alc | DRSC23316 | 0.562 | 0.0141 | 0.109
Gr32a | DRSC02400 | -0.852 | -0.0152 | -6.54
Bgb | DRSC08148 | 0.176 | 0.976 | -0.907
Bgb | DRSC25855 | 0.635 | 0.622 | -0.0253
Tango1 | DRSC02127 | 1.11 | 0.317 | 0.899
Tango1 | DRSC27972 | -0.235 | -0.21 | -0.0328
Non3 | DRSC16359 | -1.16 | 0.0353 | -0.492
DCP2 | DRSC10597 | 0.278 | -0.0428 | 0.354
Kat60 | DRSC12378 | 1.62 | 0.536 | 1.28
CG13288 | DRSC09962 | 0.285 | -2.69 | -0.465
MtnC | DRSC22879 | -5.64 | -0.802 | -0.399
CG33641 | DRSC37845 | 0.323 | -1.27 | -3.88
Sik2 | DRSC18522 | -0.76 | 1.23 | -0.678
CG8520 | DRSC07206 | 0.743 | -6.54 | 0.648
CG3156 | DRSC18503 | 1.19 | -0.488 | -0.197
CG3156 | DRSC27939 | -1.59 | -0.223 | 0.0342
CG18404 | DRSC15323 | -4.89 | -4.44 | 0.221
CG12655 | DRSC20678 | 2.48 | 2.65 | 1.19
Droj2 | DRSC16450 | -0.106 | 0.126 | -1.08
Droj2 | DRSC28863 | -0.0686 | -4.74 | -0.436
eIF3l | DRSC10530 | 1.29 | 0.737 | 0.882
eIF3l | DRSC26186 | -2.13 | -0.882 | -0.596
CG31223 | DRSC15115 | 1.68 | 0.741 | -0.607
CG11755 | DRSC14374 | -3.83 | -0.215 | 0.731
CG11755 | DRSC26076 | 1.03 | 0.849 | 1.54
